A mixed list of measured activities; the numbers were collected in NIAID ChemDB.

All rows: host cell toxicity; cell line: MT-4; measure: CC50

Rows are shuffled and stem from different studies.

compound,conditions,read by,value
COc1cccc2c1nc(-c1ccccc1F)n2Cc1ccccc1C,-,-,13.2 µg/mL
Nc1nccc2c1ncn2[C@H]1C[C@H](O)[C@@H](CO)O1,-,-,145 µM
COc1cccc2c1c(/C(O)=C\C(=O)C(=O)O)cn2Cc1ccccc1F,-,MTT,33.5 µM
O=C(COc1ccc2ccccc2c1)NCc1n[nH]c(=S)n1-c1ccc(Br)cc1,-,MTT,10.2 µg/mL
Oc1ccc(-c2nn3c(-c4ccc(O)c(Cl)c4Cl)nnc3s2)c(Cl)c1Cl,-,MTT,67.8 µg/mL
Cc1ccc(S(=O)(=O)c2c(C(=O)NNCCO)[nH]c3ccc(Cl)cc23)cc1,-,MTT,>100 µM
Cc1ccc(NC(=S)NCCc2c(F)cccc2F)nc1,-,-,>1 µg/mL
CCCN1C(=O)c2cccn2S(=O)(=O)c2ccc(Cl)cc21,-,-,>300 µM
Cc1ccc(S(=O)(=O)Sc2nnc(CNC(=O)COc3ccc4ccccc4c3)n2-c2ccccc2)cc1,-,MTT,12.7 µg/mL
COC(=O)/C=C1\S/C(=N/N=C/c2c(F)cccc2Cl)NC1=O,-,MTT,52.7 µM
Nc1nc2c(ncn2COC(CO)CO)c(=O)[nH]1,-,-,>10 µM
CN1C(=O)c2cccn2S(=O)(=O)c2ccc(Cl)cc21,-,-,110 µM
CC1=C[C@@H](OCP(=O)(OCCSC(=O)C(C)(C)C)OCCSC(=O)C(C)(C)C)C[C@H]1n1cnc2c(N)ncnc21,-,XTT,24 µM
Fc1cccc(F)c1CCNC(=S)Nc1ccccn1,-,-,>5 µg/mL
CCOC(=O)c1[nH]c2ccccc2c1Cc1ccc(OC)cc1,-,MTT,>80 µM
[C-]#[N+]C[C@H]1O[C@@H](n2cc(C)c(=O)[nH]c2=O)C[C@@H]1N=[N+]=[N-],-,-,>40 µM
CNn1cc(C(=O)O)c(=O)c2cc(F)c(N3CCN(c4ncccn4)CC3)c(OC(F)F)c21,-,-,>24.9 µg/mL
Cc1cn([C@@H]2O[C@H](C3CO[Si](C(C)C)(C(C)C)O[Si](C(C)C)(C(C)C)O3)C3(OS(=O)(=O)C=C3N)[C@H]2O)c(=O)[nH]c1=O,-,-,11.8 µM
Cc1ccnc2c1NC(=O)c1cccnc1N2C1CC1,-,MTT,>4 µM
O=c1[nH]c(=O)n([C@H]2C[C@H](F)[C@@H](CO)O2)cc1/C=C/Br,-,-,300 µM
Cc1cn([C@@H]2O[C@H](C(COC(=O)c3ccccc3)OC(=O)c3ccccc3)C3(OS(=O)(=O)C=C3N)[C@H]2O[Si](C)(C)C(C)(C)C)c(=O)[nH]c1=O,-,-,8.3 µM
Cc1ccc(S(=O)(=O)Nc2nnc(C(C)NS(=O)(=O)c3ccc(Cl)cc3)s2)cc1,-,MTT,60.53 µM
Nc1cc(O)ccc1-c1n[nH]c(=S)n1N,-,MTT,12 µg/mL
CCc1cn([C@H]2C[C@H](F)[C@@H](CO)O2)c(=O)[nH]c1=O,-,-,500 µM
OC[C@H]1O[C@@H](n2nnc3ccnc(Cl)c32)[C@H](O)[C@@H]1O,-,-,15 µM
C=Cn1cc(C(=O)O)c(=O)c2ccc(N3CCN(c4nccs4)CC3)nc21,-,MTT,34.61 µM
COc1cccc2c1c(/C(O)=C/C(=O)C(=O)O)cn2Cc1cc(F)ccc1F.COc1cccc2c1c(/C(O)=C/C(=O)C(=O)O)cn2Cc1cc(F)ccc1F.[Mg+2].[Mg+2],-,MTT,15 µM
O=C1CSc2nnc(-c3ccc(Cl)c(Cl)c3)n2N1,-,MTT,35.23 µg/mL
Cc1ccc(S(=O)(=O)NC(CC(C)C)c2nnc(N(S(=O)(=O)c3ccc(Cl)cc3)S(=O)(=O)c3ccc(Cl)cc3)s2)cc1,-,MTT,4.09 µM
COc1cccc2c1c1ccc(N)cc1n1c(C)c(C(C)=O)cc21,-,-,18 µM
COc1cccc2c1nc(-c1ccccc1F)n2Cc1ccc(C)cc1,-,-,11.7 µg/mL
Cn1cc(C(=O)O)c(=O)c2ncc(N3CCN(c4nc5ccccc5s4)CC3)cc21,-,MTT,>119 µM
Cc1cc(C)cc(Sc2c(C(=O)NCCO)[nH]c3ccc(Cl)cc23)c1,-,MTT,42 µM
Cn1cc(C(=O)O)c(=O)c2ccc(N3CCN(c4ccccn4)CC3)nc21,-,MTT,26.33 µM
Cc1ccc(S(=O)(=O)c2c(C(=O)NCCO)[nH]c3ccc(Cl)cc23)cc1,-,MTT,>100 µM
Nc1cc(O)ccc1-c1nnc2sc(-c3cc4ccccc4oc3=O)nn12,-,MTT,108.3 µg/mL
Fc1cccc(F)c1CCNC(=S)Nc1ncc(Cl)cc1Cl,-,-,>24.2 µg/mL
O=C(COc1ccc2ccccc2c1)NCc1nnc(Nc2ccccc2)s1,-,MTT,2.92 µg/mL
COC(=O)/C=C1\S/C(=N/N=C/c2ccc(Cl)cc2)NC1=O,-,MTT,4.23 µM
COc1cccc2c1nc(-c1ccccc1F)n2Cc1c(F)ccc(F)c1F,-,-,14.5 µg/mL
COc1ccccc1N1CCN(c2c(F)cc3c(=O)c(C(=O)O)cn(CCF)c3c2OC)CC1,-,-,10 µg/mL
O=C(COc1ccc2ccccc2c1)NCc1n[nH]c(=S)n1-c1ccc(Cl)cc1,-,MTT,20.2 µg/mL
Clc1ccc(-c2nnc3sc(-c4ccc[nH]4)nn23)cc1Cl,-,-,68.48 µg/mL
CC(=O)N[C@@H](Cc1ccc(O)cc1)C(=O)N[C@H]1CSSC[C@@H](C(=O)O)NC(=O)[C@H](CCCCN)NC(=O)[C@H](CCCCN)NC1=O,2 d,MTT,>2.5 µM
O=C(COc1ccc2ccccc2c1)NCC(=O)NNC(=S)Nc1ccc(Cl)cc1,-,MTT,11.2 µg/mL
CC(C)CCC[C@@H](C)[C@H]1CC[C@H]2[C@@H]3CC=C4C[C@@H](O)CC[C@]4(C)[C@H]3CC[C@]12C,-,-,>25 µM
COC(=O)/C=C1\S/C(=N/N=C/c2ccc(OCc3ccccc3)cc2)NC1=O,-,MTT,97.45 µM
COc1cccc2c1nc(-c1ccccc1F)n2CC1CCC1,-,-,11.2 µg/mL
CC(C)CC(NS(=O)(=O)c1ccc(Cl)cc1)c1nnc(NS(=O)(=O)c2ccc(Br)cc2)s1,-,MTT,57.63 µM
Nn1cc(C(=O)O)c(=O)c2ccc(N3CCN(c4ccccn4)CC3)nc21,-,MTT,173 µM
Cc1cnc(=O)n([C@H]2C[C@H](F)[C@@H](CO)O2)c1,-,-,300 µM
COc1ccc(-c2cc(-c3ccccc3)c(C#N)c(=O)n2[C@@H]2O[C@H](CO)[C@H](O)[C@H](O)[C@H]2O)cc1,-,XTT,>21.5 µM
O=C(COc1ccc2ccccc2c1)NCc1n[nH]c(=S)n1Cc1ccccc1,-,MTT,28.5 µg/mL
C=CCN1C(=O)c2cccn2S(=O)(=O)c2ccc(Cl)cc21,-,-,32 µM
CCC(C)C(NC(=O)C(N)CO)C(=O)NC(C)C(=O)NC(CCC(=O)O)C(=O)NN[C@@]12NC(=O)[C@@]3(OC(C)=O)C4C5C(C41)[C@@H]1C[C@H]5C3C12,-,-,>10 µM
CC(=O)c1cc(-c2ccccc2)n(-c2cccc(N)c2)c1C,-,-,22 µM
Fc1cccc(F)c1CCNC(=S)Nc1ncccn1,-,-,>5 µg/mL
Oc1ccc(-c2nnc3sc(-c4ccc[nH]4)nn23)c(Cl)c1Cl,-,MTT,68.48 µg/mL
COC(=O)/C=C1\S/C(=N/N=C/c2ccc(N(C)C)cc2)NC1=O,-,MTT,87.25 µM
Cn1cc(C(=O)O)c(=O)c2cnc(N3CCN(c4nc5ccccc5s4)CC3)cc21,-,MTT,>297 µM
CCOC(=O)c1[nH]c2ccccc2c1Cc1ccccc1Cl,-,MTT,>80 µM
CC(C)N1C(=O)c2cccn2S(=O)(=O)c2ccc(Cl)cc21,-,-,>300 µM
CCC(C)C(NC(=O)C(N)CO)C(=O)NC(C)C(=O)N[C@]12NC(=O)[C@]3(O)C4C5C(C41)[C@H]1C[C@@H]5C3C12,-,-,0.5 µM
Cc1cn([C@H]2C[C@H](F)[C@@H](CO)O2)c(=O)nc1N,-,-,190 µM
COC(=O)/C=C1\S/C(=N/N=C/c2cccc(OC)c2)NC1=O,-,MTT,61.3 µM
CC(=O)OC[C@H]1O[C@@H](n2c(-c3ccc(C)cc3)cc(-c3ccco3)c(C#N)c2=O)[C@H](OC(C)=O)[C@@H](OC(C)=O)[C@H]1OC(C)=O,-,XTT,>16.4 µM
O=C(O)C1=CC(=C(c2ccc(O)c(C(=O)O)c2)c2ccc(O)c(C(=O)O)c2)C=CC1=O,-,-,590 µM
Nc1ccn([C@@H]2C[C@H](F)[C@H](CO)O2)c(=O)n1,-,-,>100 µM
NC1=Nn2c(nnc2-c2ccc(Cl)c(Cl)c2)SC1,-,MTT,2.7 µg/mL
[C-]#[N+]C[C@H]1O[C@@H](n2ccc(=O)[nH]c2=O)C[C@@H]1O,-,-,>200 µM
Nc1nccc2nnn([C@@H]3O[C@H](CO)[C@@H](O)[C@H]3O)c12,-,-,>398 µM
Cc1ccc(-c2cc(-c3ccco3)c(C#N)c(=O)n2[C@@H]2O[C@H](CO)[C@@H](O)[C@H](O)[C@H]2O)cc1,-,XTT,>82.1 µM
COc1cccc2c1nc(-c1ccccc1F)n2Cc1cc(F)cc(F)c1,-,-,>25 µg/mL
Cc1cc(NC(=S)NCCc2c(F)cccc2F)ncc1Br,-,-,>25 µg/mL
Clc1ccc(-c2nnc3n2N=C(c2ccccc2)CS3)cc1Cl,-,MTT,1.97 µg/mL
COc1ccccc1N1CCN(c2c(F)cc3c(=O)c(C(=O)O)cn(C4CC4)c3c2OC(F)F)CC1,-,-,6 µg/mL
Cc1ccc(C(=O)Nc2ccc(S(=O)(=O)O)c3cc(S(=O)(=O)O)cc(S(=O)(=O)O)c23)cc1NC(=O)c1cccc(NC(=O)Nc2cccc(C(=O)Nc3cc(C(=O)Nc4ccc(S(=O)(=O)O)c5cc(S(=O)(=O)O)cc(S(=O)(=O)O)c45)ccc3C)c2)c1,-,-,625 µM
CCOC(=O)c1cc(-c2ccccc2)n(-c2cccc(N=[N+]=[N-])c2)c1C,-,-,176 µM
Nc1ncnc2c1nnn2[C@@H]1O[C@H](CO)[C@@H](O)[C@H]1O,-,-,0.3 µM
Cc1ccc(-c2cc(-c3ccccc3)c(C#N)c(=O)n2[C@@H]2O[C@H](CO)[C@H](O)[C@H](O)[C@H]2O)cc1,-,XTT,>22.3 µM
COc1cccc2c1c(/C(O)=C/C(=O)C(=O)O)cn2Cc1ccccc1F.COc1cccc2c1c(/C(O)=C/C(=O)C(=O)O)cn2Cc1ccccc1F.[Mg+2].[Mg+2],-,MTT,15.5 µM
COc1ccc(-c2cc(-c3ccccc3)c(C#N)c(=O)n2[C@@H]2O[C@H](COC(C)=O)[C@@H](OC(C)=O)[C@H](OC(C)=O)[C@H]2OC(C)=O)cc1,-,XTT,>15.8 µM
O=C(O)c1cn2c3c(c(N4CCN(c5ncccn5)CC4)c(F)cc3c1=O)OCC2CF,-,-,>37.9 µg/mL
CC(=O)c1cc(-c2cccc(N=[N+]=[N-])c2)n(-c2ccccc2)c1C,-,-,18 µM
COc1ccc(-c2cc(-c3ccccc3)c(C#N)c(=O)n2[C@@H]2O[C@H](COC(C)=O)[C@H](OC(C)=O)[C@H](OC(C)=O)[C@H]2OC(C)=O)cc1,-,XTT,>11.4 µM

The last 13 rows once more:

COc1cccc2c1nc(-c1ccccc1F)n2Cc1cc(F)cc(F)c1 ; value: >25 µg/mL
Cc1cc(NC(=S)NCCc2c(F)cccc2F)ncc1Br ; value: >25 µg/mL
Clc1ccc(-c2nnc3n2N=C(c2ccccc2)CS3)cc1Cl ; read by: MTT ; value: 1.97 µg/mL
COc1ccccc1N1CCN(c2c(F)cc3c(=O)c(C(=O)O)cn(C4CC4)c3c2OC(F)F)CC1 ; value: 6 µg/mL
Cc1ccc(C(=O)Nc2ccc(S(=O)(=O)O)c3cc(S(=O)(=O)O)cc(S(=O)(=O)O)c23)cc1NC(=O)c1cccc(NC(=O)Nc2cccc(C(=O)Nc3cc(C(=O)Nc4ccc(S(=O)(=O)O)c5cc(S(=O)(=O)O)cc(S(=O)(=O)O)c45)ccc3C)c2)c1 ; value: 625 µM
CCOC(=O)c1cc(-c2ccccc2)n(-c2cccc(N=[N+]=[N-])c2)c1C ; value: 176 µM
Nc1ncnc2c1nnn2[C@@H]1O[C@H](CO)[C@@H](O)[C@H]1O ; value: 0.3 µM
Cc1ccc(-c2cc(-c3ccccc3)c(C#N)c(=O)n2[C@@H]2O[C@H](CO)[C@H](O)[C@H](O)[C@H]2O)cc1 ; read by: XTT ; value: >22.3 µM
COc1cccc2c1c(/C(O)=C/C(=O)C(=O)O)cn2Cc1ccccc1F.COc1cccc2c1c(/C(O)=C/C(=O)C(=O)O)cn2Cc1ccccc1F.[Mg+2].[Mg+2] ; read by: MTT ; value: 15.5 µM
COc1ccc(-c2cc(-c3ccccc3)c(C#N)c(=O)n2[C@@H]2O[C@H](COC(C)=O)[C@@H](OC(C)=O)[C@H](OC(C)=O)[C@H]2OC(C)=O)cc1 ; read by: XTT ; value: >15.8 µM
O=C(O)c1cn2c3c(c(N4CCN(c5ncccn5)CC4)c(F)cc3c1=O)OCC2CF ; value: >37.9 µg/mL
CC(=O)c1cc(-c2cccc(N=[N+]=[N-])c2)n(-c2ccccc2)c1C ; value: 18 µM
COc1ccc(-c2cc(-c3ccccc3)c(C#N)c(=O)n2[C@@H]2O[C@H](COC(C)=O)[C@H](OC(C)=O)[C@H](OC(C)=O)[C@H]2OC(C)=O)cc1 ; read by: XTT ; value: >11.4 µM

Blank or dashed fields: not listed here. CCn: concentration that lowers growth or viability of the cells by n%.